Test results reported in patent publication US20240109955A1 (published 2024).

Experiments:
Experiment in all cases: cell-based or functional assay
[1] = molecular target: SARS-CoV-2 Omicron variant B.1.1.529 spike protein (SARS-CoV-2, UniProt P0DTC2 14-1273)
[2] = molecular target: SARS-CoV-2 Omicron variant BQ.1 spike protein (SARS-CoV-2)
[3] = molecular target: SARS-CoV-2 Omicron variant BA.4/5 spike protein (SARS-CoV-2)
[4] = molecular target: SARS-CoV-2 Omicron variant BA.2.75.2 spike protein (SARS-CoV-2)
[5] = molecular target: SARS-CoV-2 Omicron variant BQ.1.1 spike protein (SARS-CoV-2)
[6] = molecular target: SARS-CoV-2 Omicron variant XBB spike protein (SARS-CoV-2)
[7] = molecular target: SARS-CoV-2 spike protein, Omicron sublineage BQ.1.1 (R346T, K444T, F486V) (SARS-CoV-2, UniProt P0DTC2 14-1273)
[8] = molecular target: SARS-CoV-2 spike protein, Omicron sublineage BA.1.1 (R346K) (SARS-CoV-2, UniProt P0DTC2 14-1273)
[9] = molecular target: SARS-CoV-2 spike protein, Omicron sublineage BA.4.6 (R346T, F486V) (SARS-CoV-2, UniProt P0DTC2 14-1273)
[10] = molecular target: SARS-CoV-2 spike protein, Omicron sublineage BA.4.7 (R346S, F486V) (SARS-CoV-2, UniProt P0DTC2 14-1273)
[11] = molecular target: SARS-CoV-2 spike protein, Omicron sublineage BF.7 (R346T, F486V) (SARS-CoV-2, UniProt P0DTC2 14-1273)

B1: MX1020 (antibody)
chain: DTVMTQSPLSLPVTPGEPASISCRSSQSLLNSNGYNYLDWYVQKPGQSPQLLIYLGSNRASGVPDRFSGSGSGTDFTLKISRVEAEDVGVYYCMQPLQTPLFTFGPGTKVEIKGGSSGDTVMTQSPLSLPVTPGEPASISCRSSQSLLNSNGYNYLDWYVQKPGQSPQLLIYLGSNRASGVPDRFSGSGSGTDFTLKISRVEAEDVGVYYCMQPLQTPLFTFGPGTKVEIKGGGGSGGSGSGGGGSASGSGQVTLRESGPALVKPTQTLTLTCTFSGFSLSTRGVCVSWIRQPPGKALEWLAFIDWDDDKYYNTSLKTRLTISKDTSKNQVVLTMTNVHPVDTATYYCARISSHHGSSWCTTFDYWGQGALVTVSAGGSSGQVTLRESGPALVKPTQTLTLTCTFSGFSLSTRGVCVSWIRQPPGKALEWLAFIDWDDDKYYNTSLKTRLTISKDTSKNQVVLTMTNVHPVDTATYYCARISSHHGSSWCTTFDYWGQGALVTVSAASGGSGDKTHTCPPCPAPELLGGPSVFLFPPKPKDTLMISRTPEVTCVVVDVSHEDPEVKFNWYVDGVEVHNAKTKPREEQYNSYVVSVLTVLHQDWLNGKEYKCKVSNKALPAPIEKTISKAKGQPREPQVYTLPPSRDELTKNQVSLTCLVKGFYPSDIAVEWESNGQPENNYKTTPPVLDSDGSFFKKLTVDKSRWQQGNVFSCSVLHEALHSHYTQKSLSLSPG
- IC50, pseudovirus neutralization [1]: 0.00219 µg/mL
- IC80, pseudovirus neutralization [1]: 0.00361 µg/mL

B2: B8 (antibody, V domains shown)
VH: EVQLVESGGALIQPGGSLRLSCAASGIIVSANYMSWVRQAPGKGLEWVSVIYSGGSTFYADSVKGRFTISRDNSKNTLYLEMNSLRAEDTAVYYCARDAPILGVSDWGQGTLVTVSS
VL: EIVMTQSPAILSVSPGERATLSCRASQSVAINLAWYQQKPGQAPRLLIYAASSRATGIPGRFSGSGSETNFTLTISSLQSGDFAVYYCQQYITWPPSYTFGQGTKLEIK
- IC50, pseudovirus neutralization [2]: 0.015 µg/mL
- IC80, pseudovirus neutralization [2]: 0.0496 µg/mL
- IC50, pseudovirus neutralization [3]: 0.00697 µg/mL
- IC80, pseudovirus neutralization [3]: 0.0148 µg/mL
- IC50, pseudovirus neutralization [4]: 0.0122 µg/mL
- IC80, pseudovirus neutralization [4]: 0.0274 µg/mL
- IC50, pseudovirus neutralization [5]: 0.00457 µg/mL
- IC80, pseudovirus neutralization [5]: 0.0217 µg/mL
- IC50, pseudovirus neutralization [6]: 0.0134 µg/mL
- IC80, pseudovirus neutralization [6]: 0.0472 µg/mL

B3: E8 (antibody, V domains shown)
VH: QVTLRESGPALVKPTQTLTLTCTFSGFSLSTRGVCVSWIRQPPGKALEWLAFIDWDDDKYYNTSLKTRLTISKDTSKNQVVLTMTNVHPVDTATYYCARISSHHGSSWCTTFDYWGQGALVTVSA
VL: DTVMTQSPLSLPVTPGEPASISCRSSQSLLNSNGYNYLDWYVQKPGQSPQLLIYLGSNRASGVPDRFSGSGSGTDFTLKISRVEAEDVGVYYCMQPLQTPLFTFGPGTKVEIK
- IC50, pseudovirus neutralization [2]: 0.124 µg/mL
- IC80, pseudovirus neutralization [2]: 5.19 µg/mL
- IC50, pseudovirus neutralization [3]: 0.00013 µg/mL
- IC80, pseudovirus neutralization [3]: 0.00049 µg/mL
- IC50, pseudovirus neutralization [4]: 0.00172 µg/mL
- IC80, pseudovirus neutralization [4]: 0.0059 µg/mL
- IC50, pseudovirus neutralization [5]: 0.496 µg/mL
- IC80, pseudovirus neutralization [5]: 1.8 µg/mL
- IC50, pseudovirus neutralization [6]: 0.0615 µg/mL
- IC80, pseudovirus neutralization [6]: 0.705 µg/mL

B4: MX834 (other)
chain 1: QTVVTQEPSFSVSPGGTVTLTCGLSSGSVSTAYFPSWYQQTPGQAPRTLIYGTNTRSSGVPDRFSGSILGNKAALTITGAQADDESDYYCVLYMGRGIVVFGGGTKLTVLGGSSGEIVLTQSPGTLSLSPGERATLSCRASQSVSSSYLAWYQQKPGQAPRLLIYSASSRATGIPDRFSGSGSGTDFTLTISRLEPEDFAVYFCQQYVGLTGWTFGQGTKVEIKGGGGSGGSGSGGGGSASGSGQMQLVQSGPEVKKPGTSVKVSCKASGFTFTSSAVQWVRQRQRLEWIGWIVVGSGNTNYAQKFQERVTITRDMSTSTAYMELSSLRSEDTAVYYCAAPNCSNVVCYDGFDIWGQGTMVTVSSGGSSGQVQLVESGGGVVQPGRSLRLSCAASGFTLSSYGMHWVRQAPGKGLEWVAVISYDGSNKYYVDSVKGRFTISRDNSKNTLYLQMNSLRAEDTAVYYCRWAYWELLPDYYYGMDVWGQGTTVTVSSASGGSGDKTHTCPPCPAPELLGGPSVFLFPPKPKDTLMISRTPEVTCVVVDVSHEDPEVKFNWYVDGVEVHNAKTKPREEQYNSYVVSVLTVLHQDWLNGKEYKCKVSNKALPAPIEKTISKAKGQPREPQVYTLPPCRDELTKNQVSLWCLVKGFYPSDIAVEWESNGQPENNYKTTPPVLDSDGSFFKKLTVDKSRWQQGNVFSCSVLHEALHSHYTQKSLSLSPG
chain 2: QTVVTQEPSFSVSPGGTVTLTCGLSSGSVSTAYFPSWYQQTPGQAPRTLIYGTNTRSSGVPDRFSGSILGNKAALTITGAQADDESDYYCVLYMGRGIVVFGGGTKLTVLGGSSGEIVLTQSPGTLSLSPGERATLSCRASQSVSSSYLAWYQQKPGQAPRLLIYSASSRATGIPDRFSGSGSGTDFTLTISRLEPEDFAVYFCQQYVGLTGWTFGQGTKVEIKGGGGSGGSGSGGGGSASGSGQMQLVQSGPEVKKPGTSVKVSCKASGFTFTSSAVQWVRQRQRLEWIGWIVVGSGNTNYAQKFQERVTITRDMSTSTAYMELSSLRSEDTAVYYCAAPNCSNVVCYDGFDIWGQGTMVTVSSGGSSGQVQLVESGGGVVQPGRSLRLSCAASGFTLSSYGMHWVRQAPGKGLEWVAVISYDGSNKYYVDSVKGRFTISRDNSKNTLYLQMNSLRAEDTAVYYCRWAYWELLPDYYYGMDVWGQGTTVTVSSASGGSGDKTHTCPPCPAPELLGGPSVFLFPPKPKDTLMISRTPEVTCVVVDVSHEDPEVKFNWYVDGVEVHNAKTKPREEQYNSYVVSVLTVLHQDWLNGKEYKCKVSNKALPAPIEKTISKAKGQPREPQVYTLPPCRDELTKNQVSLWCLVKGFYPSDIAVEWESNGQPENNYKTTPPVLDSDGSFFKKLTVDKSRWQQGNVFSCSVLHEALHSHYTQKSLSLSPG
- IC50, pseudovirus neutralization [7]: 5120 nM
- IC80, pseudovirus neutralization [7]: > 10000 nM
- IC50, pseudovirus neutralization [8]: 1.6 nM
- IC80, pseudovirus neutralization [8]: 3.92 nM
- IC50, pseudovirus neutralization [9]: 68.4 nM
- IC80, pseudovirus neutralization [9]: 174 nM
- IC50, pseudovirus neutralization [10]: 39.7 nM
- IC80, pseudovirus neutralization [10]: 187 nM
- IC50, pseudovirus neutralization [11]: 65.9 nM
- IC80, pseudovirus neutralization [11]: 244 nM

B5: MX835 (other)
chain 1: QTVVTQEPSFSVSPGGTVTLTCGLSSGSVSTAYFPSWYQQTPGQAPRTLIYGTNTRSSGVPDRFSGSILGNKAALTITGAQADDESDYYCVLYMGRGIVVFGGGTKLTVLGGSSGEIVLTQSPGTLSLSPGERATLSCRASQSVSSSYLAWYQQKPGQAPRLLIYSASSRATGIPDRFSGSGSGTDFTLTISRLEPEDFAVYFCQQYGGLTGWTFGQGTKVEIKGGGGSGGSGSGGGGSASGSGQMQLVQSGPEVKKPGTSVKVSCKASGFTFTSSAVQWVRQRQRLEWIGWIVVGSGNTNYAQKFQERVTITRDMSTSTAYMELSSLRSEDTAVYYCAAPNCSNVVCYDGFDIWGQGTMVTVSSGGSSGQVQLVESGGGVVQPGRSLRLSCAASGFTLSSYGMHWVRQAPGKGLEWVAVISYDGSNKYYVDSVKGRFTISRDNSKNTLYLQMNSLRAEDTAVYYCRWAYWELLPDYYYGMDVWGQGTTVTVSSASGGSGDKTHTCPPCPAPELLGGPSVFLFPPKPKDTLMISRTPEVTCVVVDVSHEDPEVKFNWYVDGVEVHNAKTKPREEQYNSYVVSVLTVLHQDWLNGKEYKCKVSNKALPAPIEKTISKAKGQPREPQVYTLPPCRDELTKNQVSLWCLVKGFYPSDIAVEWESNGQPENNYKTTPPVLDSDGSFFKKLTVDKSRWQQGNVFSCSVLHEALHSHYTQKSLSLSPG
chain 2: EIVLTQSPGTLSLSPGERATLSCRASQSVSSSYLAWYQQKPGQAPRLLIYSASSRATGIPDRFSGSGSGTDFTLTISRLEPEDFAVYFCQQYGGLTGWTFGQGTKVEIKGGSSGDIQMTQSPSSVSASVGDRVIITCRASQGISSWLAWYQQKPGKAPKVLIYDASSLQSGVPSRFSGSGYGTDFTLTISSLQPEDSATYYCQQAKSFPITFGQGTRLEIKGGGGSGGSGSGGGGSASGSGQVQLVESGGGVVQPGRSLRLSCAASGFTFSSYAFHWVRQAPGKGLEWVAVISYDGSNQYYADSVKGRFTISRDNSKNTLYLQMNSLRADDTAVYYCARDLAIAVAGTWHYYNGMDVWGQGTTVTVSSGGSSGQMQLVQSGPEVKKPGTSVKVSCKASGFTFTSSAVQWVRQRQRLEWIGWIVVGSGNTNYAQKFQERVTITRDMSTSTAYMELSSLRSEDTAVYYCAAPNCSNVVCYDGFDIWGQGTMVTVSSASGGSGDKTHTCPPCPAPELLGGPSVFLFPPKPKDTLMISRTPEVTCVVVDVSHEDPEVKFNWYVDGVEVHNAKTKPREEQYNSYVVSVLTVLHQDWLNGKEYKCKVSNKALPAPIEKTISKAKGQPREPQVCTLPPSRDELTKNQVSLSCAVKGFYPSDIAVEWESNGQPENNYKTTPPVLDSDGSFFLVSKLTVDKSRWQQGNVFSCSVLHEALHSHYTQKSLSLSPG
- IC50, pseudovirus neutralization [7]: 4240 nM
- IC80, pseudovirus neutralization [7]: > 10000 nM
- IC50, pseudovirus neutralization [8]: 6.52 nM
- IC80, pseudovirus neutralization [8]: 11.7 nM
- IC50, pseudovirus neutralization [9]: 71.1 nM
- IC80, pseudovirus neutralization [9]: 179 nM
- IC50, pseudovirus neutralization [10]: 41 nM
- IC80, pseudovirus neutralization [10]: 216 nM
- IC50, pseudovirus neutralization [11]: 61.4 nM
- IC80, pseudovirus neutralization [11]: 282 nM
